The target of assay [1] is CgBdf1 BD1 (Candida glabrata, UniProt Q6FWV7). Kind of assay: HTRF assay, inhibition of H4ac4 peptide binding. To be noted: read-out: IC50 CgBdf1 BD1; Table S3; estimate, preliminary single-replicate HTRF assay. Set-up: species or system C. glabrata.
The subject of assay [2] is CgBdf1 BD2. The conditions noted are these: for Normalized (0 to 100%), WT, Average / Raw data, WT, Left / Raw data, WT, Rigt: CgBdf1 BD2 WT; for Normalized (0 to 100%), WT, Average / Normalized (0 to 100%), YF mutant, Average: normalized peptide array signal; for Raw data, WT, Left / Raw data, WT, Rigt / Raw data, YF mutant, Left / Raw data, YF mutant, Right: peptide array signal; for Raw data, WT, Left / Raw data, YF mutant, Left: left replicate; for Raw data, WT, Rigt / Raw data, YF mutant, Right: right replicate; for Normalized (0 to 100%), YF mutant, Average / Raw data, YF mutant, Left / Raw data, YF mutant, Right: CgBdf1 BD2 YF mutant.

The chains behind the UniProt entries cited, without tags or fusion partners. Residues count along the entry.
UniProt Q6FWV7, 100-228 limits assumed: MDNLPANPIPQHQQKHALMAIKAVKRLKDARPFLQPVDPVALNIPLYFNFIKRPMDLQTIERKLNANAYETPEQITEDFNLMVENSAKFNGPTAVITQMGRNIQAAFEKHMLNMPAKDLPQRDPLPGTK

The subject of assay [3] is CgBdf1 BD1. The conditions noted are these: for Normalized (0 to 100%), WT, Average / Raw data, WT, Left / Raw data, WT, Rigt: CgBdf1 BD1 WT; for Normalized (0 to 100%), WT, Average / Normalized (0 to 100%), YF mutant, Average: normalized peptide array signal; for Raw data, WT, Left / Raw data, WT, Rigt / Raw data, YF mutant, Left / Raw data, YF mutant, Right: peptide array signal; for Raw data, WT, Left / Raw data, YF mutant, Left: left replicate; for Raw data, WT, Rigt / Raw data, YF mutant, Right: right replicate; for Normalized (0 to 100%), YF mutant, Average / Raw data, YF mutant, Left / Raw data, YF mutant, Right: CgBdf1 BD1 YF mutant.

Data on six compounds can be found in article PMC11904993, “Humanized Candida and NanoBiT Assays Expedite Discovery of Bdf1 Bromodomain Inhibitors With Antifungal Potential” (Advanced Science, 2025).

`CCc1nnc(-c2ccc3ccn(CC(=O)Nc4cccc(OC)c4)c3c2)o1`: the IC50 in assay [1] is over 20 µM. Further, in assay [2], the “Normalized (0 to 100%), WT, Average” value is reported as 0.499%; the “Raw data, WT, Left” value was determined as 0.004991; the “Raw data, WT, Rigt” value is 0.004991; the “Normalized (0 to 100%), YF mutant, Average” value came out at 0.613%. In assay [2], the “Raw data, YF mutant, Left” value is given as 0.01012 and the “Raw data, YF mutant, Right” value stood at 0.002147. Besides, in assay [3], the “Normalized (0 to 100%), WT, Average” value is on record as 2.65%; the “Raw data, WT, Left” value is 0.01166; the “Raw data, WT, Rigt” value came out at 0.04127; the “Normalized (0 to 100%), YF mutant, Average” value is 0.308%. For the same compound, in assay [3], the “Raw data, YF mutant, Left” value is given as 0.003085 and the “Raw data, YF mutant, Right” value is recorded as 0.003085.

For `CC(=O)c1cccc(NC(=O)Cn2cccc2-c2nc(-c3ccccc3)no2)c1`, in assay [1], the IC50 is over 20 µM. In assay [2], the “Normalized (0 to 100%), WT, Average” value worked out at 0.92%; the “Raw data, WT, Left” value came to 0.01154; the “Raw data, WT, Rigt” value is 0.006862; the “Normalized (0 to 100%), YF mutant, Average” value came out at 1%. In assay [2], the “Raw data, YF mutant, Left” value was 0.01534 and the “Raw data, YF mutant, Right” value worked out at 0.003988. For the same compound, in assay [3], the “Normalized (0 to 100%), WT, Average” value was found to be 1.87%; the “Raw data, WT, Left” value is recorded as 0.01418; the “Raw data, WT, Rigt” value stood at 0.02331; the “Normalized (0 to 100%), YF mutant, Average” value worked out at 0.386%. For the same compound, in assay [3], the “Raw data, YF mutant, Left” value is listed as 0.004627 and the “Raw data, YF mutant, Right” value is 0.003085.

Take `Cc1nnc(-c2ccc3ccn(CC(=O)Nc4cccc(Cl)c4)c3c2)o1`: the IC50 in assay [1] is over 20 µM. Besides, in assay [2], the “Normalized (0 to 100%), WT, Average” value amounted to 0.686%; the “Raw data, WT, Left” value was 0.007798; the “Raw data, WT, Rigt” value came out at 0.005926; the “Normalized (0 to 100%), YF mutant, Average” value was found to be 0.706%. In assay [2], the “Raw data, YF mutant, Left” value came to 0.01012 and the “Raw data, YF mutant, Right” value is listed as 0.003988. Moreover, in assay [3], the “Normalized (0 to 100%), WT, Average” value is on record as 1.75%; the “Raw data, WT, Left” value came out at 0.004726; the “Raw data, WT, Rigt” value is reported as 0.03025; the “Normalized (0 to 100%), YF mutant, Average” value is 0.308%. Moreover, in assay [3], the “Raw data, YF mutant, Left” value turned out to be 0.003085 and the “Raw data, YF mutant, Right” value is reported as 0.003085.

Turning to `CCc1cccc(NC(=O)Cn2ccc3ccc(-c4nnc(C)o4)cc32)c1`, in assay [2], the “Normalized (0 to 100%), WT, Average” value came out at 1.34%; the “Raw data, WT, Left” value is 0.01497; the “Raw data, WT, Rigt” value was determined as 0.01185; the “Normalized (0 to 100%), YF mutant, Average” value is given as 0.936%. For the same compound, in assay [2], the “Raw data, YF mutant, Left” value worked out at 0.01472 and the “Raw data, YF mutant, Right” value came to 0.003988.

Regarding `CCC(=O)Nc1ccc(CCc2nc3ccc(C(=O)NCc4ccc5c(c4)OCO5)cc3[nH]2)cc1`, the concentration for half-maximal inhibition (IC50) in assay [1] was over 20 µM. In assay [2], the “Normalized (0 to 100%), WT, Average” value is recorded as 0.811%; the “Raw data, WT, Left” value is on record as 0.00811; the “Raw data, WT, Rigt” value came to 0.00811; the “Normalized (0 to 100%), YF mutant, Average” value was determined as 1.9%. Besides, in assay [2], the “Raw data, YF mutant, Left” value turned out to be 0.02975 and the “Raw data, YF mutant, Right” value is 0.008282. For the same compound, in assay [3], the “Normalized (0 to 100%), WT, Average” value is reported as 2.5%; the “Raw data, WT, Left” value was found to be 0.02174; the “Raw data, WT, Rigt” value was found to be 0.02836; the “Normalized (0 to 100%), YF mutant, Average” value is reported as 0.432%. Also, in assay [3], the “Raw data, YF mutant, Left” value was determined as 0.005552 and the “Raw data, YF mutant, Right” value worked out at 0.003085.

On to `CCOc1cc(-c2ccccc2)nc2ccc(NS(=O)(=O)c3ccc(NC(C)=O)cc3)cc12`, for which the IC50 in assay [1] was 6.1 µM. In assay [2], the “Normalized (0 to 100%), WT, Average” value is reported as 0.593%; the “Raw data, WT, Left” value is 0.004055; the “Raw data, WT, Rigt” value came out at 0.007798; the “Normalized (0 to 100%), YF mutant, Average” value was determined as 0.567%. In assay [2], the “Raw data, YF mutant, Left” value was 0.007669 and the “Raw data, YF mutant, Right” value is 0.003681. Further, in assay [3], the “Normalized (0 to 100%), WT, Average” value is listed as 1.45%; the “Raw data, WT, Left” value stood at 0.007876; the “Raw data, WT, Rigt” value was determined as 0.02111; the “Normalized (0 to 100%), YF mutant, Average” value is 0.247%. Further, in assay [3], the “Raw data, YF mutant, Left” value came to 0.002159 and the “Raw data, YF mutant, Right” value worked out at 0.002776.

By IC50 is commonly meant the midpoint of a concentration-inhibition curve.
